A mixed list of measured activities; the numbers were collected in NIAID ChemDB.

Common to all: tests in culture; species: HIV-1

An empty or dashed field is not shown. Neighbouring rows are from separate reports. ECn is the concentration giving n% inhibition of infection, replication or growth.

compound | setting | cells | read by | changes | strain or isolate | endpoint | value
Cc1cn([C@H]2C[C@H](N=[N+]=[N-])[C@@H](CO)O2)c(=O)[nH]c1=O | 14 d | MT-2 | antigen |  | TM | EC50 | 4 µM
CC1=C(CCC(=O)O)c2cc3nc(cc4[nH]c(cc5[nH]c(cc1n2)c(C)c5C(COC(=O)B([B]C1[B][B][B][B]1)C1[B][B][B][B]1)OC(=O)B([B]C1[B][B][B][B]1)C1[B][B][B][B]1)c(C)c4C(COC(=O)B([B]C1[B][B][B][B]1)C1[B][B][B][B]1)OC(=O)B([B]C1[B][B][B][B]1)C1[B][B][B][B]1)C(C)=C3CCC(=O)O |  | MT-2 | cytopathic effect |  | IIIB | EC50 | 0.22 ± 0.09 µM
CN1CC2=C(NC(=S)NC2c2cccs2)/C(=C/c2cccs2)C1 |  | CEM + CEM-SS | cytopathic effect / XTT |  | RF | EC50 | >34 µM
C=CC(C)(C)O[C@H](C)[C@@H]1NC(=O)[C@H]2CSC(=N2)[C@@H](Cc2ccccc2)NC(=O)[C@@H]2CCCN2C(=O)[C@H](CO)NC(=O)C(CC(C)C)NC1=O |  | CEM | MTT |  |  | EC50 | >78 µM
[Li+] |  | C8166 | antigen |  | IIIB | EC50 | >1000 µg/mL
Nc1ccn([C@H]2CC[C@@H](COP(=O)(O)O)O2)c(=O)n1 |  | ATH8 | cytopathic effect / trypan blue |  | IIIB Laboratory strain | EC50 | <10 µM
O=c1[nH]cnc2c1ncn2[C@H]1CC[C@@H](CO)O1 |  | MT-4 | cytopathic effect |  | IIIB | EC50 | 11 µM
Cn1c2ccccc2c2c3c(c4c5ccccc5n(CC(F)F)c4c21)CNC3=O |  | U1/HIV-1(TNFalpha) + U1 | syncytia |  |  | EC50 | 0.02 µM
OC[C@@H]1[C@@H](O)[C@H](O)[C@@H](O)CN1CCCC(F)(F)F |  | MOLT-4 | syncytia |  | IIIB | EC50 | 80 µM
COc1ccc(/C=C2\CN(C)CC3=C2NC(=S)NC3c2ccc(OC)cc2)cc1 |  | CEM + CEM-SS | cytopathic effect / XTT |  | RF | EC50 | >6.8 µM
Cn1nc(C(F)(F)F)cc1-c1ccc(CN2CCN(C[C@@H](O)C[C@@H](Cc3ccccc3)C(=O)N[C@H]3c4ccccc4C[C@H]3O)[C@H](C(=O)NC(C)(C)C)C2)s1 |  | MT-4 | p24 |  | IIIB | EC50 | <0.006 µM
Nc1nc2c(ncn2[C@H]2CO[C@@H](CO)O2)c(=O)[nH]1 |  | MT-2 |  | RT-K65R |  | EC50 | 0.91 µM
Cc1cn([C@H]2C=C[C@@H](COP3(=O)OCc4c(ccc5ccccc45)O3)O2)c(=O)[nH]c1=O |  | CEM + CEM/O | syncytia |  | IIIB | EC50 | 0.08 µM
Nc1ccn([C@]2(c3ccccc3)C[C@@H]2CO)c(=O)n1 |  | MT-4 | cytopathic effect |  |  | EC50 | >100 µM
CCN1c2ncccc2-c2nccn2-c2ccc(N(C)C)nc21 | 7 d | H9 | p24 |  | IIIB | EC50 | <0.041 µM
CC(=O)SCCOP(=O)(OCCSC(C)=O)OC[C@@H]1CC[C@H](n2cnc3c(=O)[nH]cnc32)O1 |  | CEM + CEM-SS | cytopathic effect |  | IIIB | EC50 | 1.2 µM
O=C(O)c1c(Br)c(Br)c(Br)c(Br)c1-c1c2ccc(=O)cc-2oc2cc(O)ccc12 |  | MAGI | β-galactosidase |  | NL4-3 | EC50 | 41.7 µM
N#Cc1ccccc1C#CC1(C2CC2)NC(=O)Nc2ccc(Cl)cc21 |  | MT-4 |  |  | IIIB | EC50 | <0.012 µM
Cc1cn([C@H]2CC[C@@H](CO)O2)c(=O)[nH]c1=O |  | ATH8 | cytopathic effect / trypan blue |  | IIIB Laboratory strain | EC50 | <200 µM
O=C(/C=C/c1ccc(O)c(O)c1)O[C@@H]1C[C@](OC(=O)/C=C/c2ccc(O)c(O)c2)(C(=O)O)C[C@@H](O)[C@H]1O |  | MT-2 | cytopathic effect / neutral red |  | LAI | EC50 | 2 µg/mL
CC(C)Nc1cccnc1N1CCN(C(=O)c2cc3cc(NS(C)(=O)=O)ccc3[nH]2)CC1 |  | CEM | syncytia |  | IIIB | EC50 | 0.006 µg/mL
CCN1c2ncccc2-c2ncc(C)n2-c2ccc(OC)nc21 | 7 d | H9 | p24 |  | IIIB | EC50 | <0.0023 µM
O[C@H]1[C@H](O)[C@@H](O)CN2CC[C@H](O)[C@H]12 |  | MOLT-4 | syncytia |  | IIIB | EC50 | 44 µM
Nc1ncnc2c1ncn2[C@H]1CC[C@@H](CO)O1 |  | ATH8 | cytopathic effect / trypan blue |  | IIIB Laboratory strain | EC50 | <5 µM
Cc1cn([C@H]2C[C@H](N=[N+]=[N-])[C@@H](CO)O2)c(=O)[nH]c1=O |  | MT-4 | p24 / ELISA |  | IIIB | EC50 | <0.001 µg/mL
CN1C/C(=C\c2cccs2)C(=O)/C(=C/c2cccs2)C1 |  | CEM + CEM-SS | cytopathic effect / XTT |  | RF | EC50 | >15.2 µM
Cc1cn([C@@H]2O[C@H](CO)[C@@H](N=[N+]=[N-])[C@@H]2F)c(=O)[nH]c1=O |  | H9 | antigen |  | IIIB | EC50 | >100 µM
Nc1c(S(=O)(=O)O)cc2c3c(cc(S(=O)(=O)O)cc13)C(=O)N(NC(=O)N/N=C/c1ccc(-c3ccc(/C=N/NC(=O)NN4C(=O)c5cc(S(=O)(=O)O)cc6c(N)c(S(=O)(=O)O)cc(c56)C4=O)cc3)cc1)C2=O |  | PBMC | trypan blue |  | LAV | EC90 | 13.5 µM
CCN1c2ncccc2-c2nccn2-c2ccc(OC)nc21 | 7 d | C8166 | syncytia |  |  | EC50 | <0.1 µM
CC(=O)OCCOCn1c(-c2ccccc2)c([N+](=O)[O-])c2ccccc21 |  | MT-4 |  |  |  | EC50 | >200 µM
CN1Cc2c(c3c4ccccc4n(C)c3c3c2c2ccccc2n3CCC#N)C1=O |  | U1/HIV-1(PMA) + U1 | syncytia |  |  | EC50 | >>1 µM
Cc1cn([C@H]2C[C@H](N=[N+]=[N-])[C@@H](CO)O2)c(=O)[nH]c1=O |  | MT-4 | cytopathic effect / MTT |  | IIIB | EC50 | 0.0009 µg/mL
O=C1N(Cc2ccc(CO)cc2)[C@H](Cc2ccccc2)[C@H](O)[C@@H](O)[C@@H](Cc2ccccc2)N1Cc1ccc(CO)cc1 |  | PBMC | p24 |  | HXB2 | EC90 | 0.05 µM
Cc1cn([C@H]2C[C@H](N=[N+]=[N-])[C@@H](CO)O2)c(=O)[nH]c1=O |  |  |  |  |  | EC50 | 0.08 µg/mL
Cc1occc1C(=S)Nc1ccc(Cl)c(/C=N/OC(C)(C)C)c1 |  | CEM | syncytia |  | IIIB | EC50 | 0.05 µg/mL
Nc1nc(=O)n([C@H]2CC[C@@H](CO)O2)cc1Br |  | ATH8 | cytopathic effect / trypan blue |  | IIIB Laboratory strain | EC50 | >30 µM
CC(=O)OCCOCn1cc(C=O)c2ccccc21 |  | MT-4 |  |  |  | EC50 | >200 µM
CC1=C(CCC(=O)O)c2cc3nc(cc4[nH]c(cc5[nH]c(cc1n2)c(C)c5CCOC(=O)B([B]C1[B][B][B][B]1)C1[B][B][B][B]1)c(C)c4CCOC(=O)B([B]C1[B][B][B][B]1)C1[B][B][B][B]1)C(C)=C3CCC(=O)O |  | MT-2 | p24 |  | IIIB | EC50 | 0.33 ± 0.15 µM
Cc1cn([C@H]2C[C@H](N=[N+]=[N-])[C@@H](CO)O2)c(=O)[nH]c1=O |  | CEM + CEM-SS | cytopathic effect / XTT |  | C | EC50 | 0.002 µM
COc1ccc(-c2c3c(cc4cc(OC)c(OC)cc24)CN(C(C)C)C3)cc1OC |  | U87 (CD4+ CCR5+) + U87 | luciferase |  | CONB/pNL43E-Luc+ | EC50 | 1.07 µg/mL
Cc1cn([C@H]2C[C@H](N=[N+]=[N-])[C@@H](CO)O2)c(=O)[nH]c1=O |  | Macrophage + Monocytes/macrophages | RT activity |  | BaL | EC50 | 0.015 µM
CCN1c2ncccc2-c2nccn2-c2cccnc21 | 7 d | H9 | p24 |  | IIIB | EC50 | <0.07 µM
Nc1c(S(=O)(=O)O)cc2c3c(cc(S(=O)(=O)O)cc13)C(=O)N(NC(=O)N/N=C/c1ccccc1)C2=O |  |  | RT activity |  | LAV | EC50 | ~1760 µM
CC(=O)c1ccc(C)cc1NC(C(N)=O)c1c(Cl)cccc1Cl |  | CEM | syncytia |  | IIIB | EC50 | 0.003 µg/mL
Nc1c(S(=O)(=O)[O-])cc2c3c(cc(S(=O)(=O)[O-])cc13)C(=O)N(NC(=O)N/N=C\c1cccc(C=O)c1)C2=O.[Na+].[Na+] |  | PBMC | trypan blue |  | LAV | EC90 | 95.9 µM
CN1C/C(=C\c2cccs2)C2=NN(c3ccccc3)C(c3cccs3)C2C1 |  | CEM + CEM-SS | cytopathic effect / XTT |  | RF | EC50 | >9.1 µM
Cc1cn([C@@H]2O[C@H](CO[Si](C)(C)C(C)(C)C)C3(OS(=O)(=O)C=C3N)[C@H]2O[Si](C)(C)C(C)(C)C)c(=O)n(C)c1=O |  | CEM | syncytia |  | IIIB | EC50 | 0.024 µg/mL
CC(=O)OCCOCn1c(-c2ccccn2)c([N+](=O)[O-])c2ccccc21 |  | MT-4 |  |  |  | EC50 | >200 µM
COc1cc2c(cc1OC)[C@@H](Nc1ccc([N+](=O)[O-])cc1)[C@H]1COC(=O)[C@@H]1[C@@H]2c1cc(OC)c(O)c(OC)c1 |  | H9 | p24 |  | IIIB | EC50 | <0.001 µg/mL
CC(C)(C)NC(=O)[C@@H]1C[C@@H]2CCCC[C@@H]2CN1C[C@@H](O)[C@H](Cc1ccccc1)NC(=O)[C@H](CC(N)=O)NC(=O)OCc1ccccc1 |  | PBMC |  |  | A012 PRE-AZT | EC50 | 0.144 µM
CC(C)OP(=O)(COC[C@H]1C[C@@]1(c1ccccc1)n1ccc(N)nc1=O)OC(C)C |  | MT-4 | cytopathic effect |  |  | EC50 | >100 µM
O=c1[nH]cnc2c1ncn2[C@H]1CC[C@@H](CO)O1 |  | HT4 + HT4 LacZ-1 | plaque count |  | HXB2 | EC50 | 1.26 µM
Cc1ccnc2c1NC(=O)c1cccnc1N2C1CC1 |  | C8166 | syncytia |  | IIIB | EC50 | 0.01125 µM
COC(=O)[C@H](C)NP(=O)(OC[C@@H]1C=C[C@H](n2cc(C)c(=O)[nH]c2=O)O1)Oc1ccc(Br)cc1 |  | PBMC | p24 | RT-T69K K70G V75I F77L F116Y Q151M M184V | 56252-1 NRTI resistant recombinant | EC50 | 0.025 µM
Cc1cn([C@H]2C=C[C@@H](COP3(=O)OCc4ccc5ccccc5c4O3)O2)c(=O)[nH]c1=O |  | CEM + CEM/O | syncytia |  | IIIB | EC50 | 0.11 µM
CC(C)=CCOc1cc(NC(=S)c2ccoc2C)ccc1Cl |  | CEM | syncytia |  | IIIB | EC50 | 0.001 µg/mL
CC(C)=CCN1c2cc(Cl)cc3[nH]c(=S)n(c23)C[C@@H]1C |  | MT-4 |  | RT-L74V K101E |  | EC50 | <0.4 µM
Cc1cn([C@H]2C[C@H](N=[N+]=[N-])[C@@H](CO)O2)c(=O)[nH]c1=O |  | U87 (CD4+ CCR5+) + U87 | luciferase |  | CONB/pNL43E-Luc+ | EC50 | <0.2 µg/mL
CC(C)(C)NC(=O)[C@@H]1C[C@@H]2CCCC[C@@H]2CN1C[C@@H](OC(=O)C(CS)NC(=O)CCCCON)[C@H](Cc1ccccc1)NC(=O)[C@H](CC(N)=O)NC(=O)c1ccc2ccccc2n1 |  | MT-2 | cytopathic effect / MTT |  | LAV/LAI | EC50 | 0.9 µM
CC[C@H](C)[C@H](NC(=O)[C@H](C(C)C)[C@@H](O)[C@H](O)[C@H](CC1CCCCC1)NC(=O)[C@H](Cc1cnc[nH]1)NC(=O)COc1cccc2ccccc12)C(=O)NCc1ccccn1 |  | PBMC | p24 |  | JR-CSF | EC50 | 0.15 µM
CC(C)(C)NC(=O)[C@@H]1C[C@@H]2CCCC[C@@H]2CN1C[C@@H](O)[C@H](Cc1ccccc1)NC(=O)[C@H](CC(N)=O)NC(=O)c1ccc2ccccc2n1 |  | MT-2 | p24 | PR-G48V | HXB2 | EC50 | 0.0135 µM
OC[C@@H]1[C@@H](O)[C@H](O)[C@@H](O)CN1C/C=C/c1ccccc1Cl |  | MOLT-4 | syncytia |  | IIIB | EC50 | 160 µM
Nc1ccn([C@H]2CC[C@@H](CO)O2)c(=O)n1 |  | ATH8 | cytopathic effect / trypan blue |  | IIIB Laboratory strain | EC50 | <0.5 µM
C[C@@H]1C[C@@H]([C@H](O)CC2CC(=O)NC(=O)C2)C(=O)[C@@H](C)C1 |  | H9 | p24 |  | IIIB | EC50 | 0.1 µg/mL
Cc1cn([C@H]2C[C@H](N=[N+]=[N-])[C@@H](CO)O2)c(=O)[nH]c1=O |  | MT-4 | cytopathic effect |  |  | EC50 | >0.0004 µM
O=C1Nc2ccc(Cl)cc2[C@@](C#Cc2ccccn2)(C2CC2)N1 |  | MT-4 |  |  | IIIB | EC95 | 0.025 µM
CCOC(=O)c1ccc(N[C@@H]2c3cc(OC)c(OC)cc3[C@@H](c3cc(OC)c(O)c(OC)c3)[C@H]3C(=O)OC[C@@H]32)cc1 |  | H9 | p24 |  | IIIB | EC50 | <0.001 µg/mL
O=C(O)/C=C/c1ccc(O)c(O)c1 |  | MT-2 | cytopathic effect / neutral red |  | LAI | EC50 | >250 µg/mL
CC1CNCCN1S(=O)(=O)c1cccc2cnccc12 |  | U1/HIV-1(PMA) + U1 | p24 |  |  | EC50 | 2 µM
OC[C@@H]1[C@@H](O)[C@H](O)[C@@H](O)CN1CCCc1ccccc1 |  | MOLT-4 | syncytia |  | IIIB | EC50 | 16 µM

The first 4 rows once more:

compound | setting | cells | read by | changes | strain or isolate | endpoint | value
Cc1cn([C@H]2C[C@H](N=[N+]=[N-])[C@@H](CO)O2)c(=O)[nH]c1=O | 14 d | MT-2 | antigen |  | TM | EC50 | 4 µM
CC1=C(CCC(=O)O)c2cc3nc(cc4[nH]c(cc5[nH]c(cc1n2)c(C)c5C(COC(=O)B([B]C1[B][B][B][B]1)C1[B][B][B][B]1)OC(=O)B([B]C1[B][B][B][B]1)C1[B][B][B][B]1)c(C)c4C(COC(=O)B([B]C1[B][B][B][B]1)C1[B][B][B][B]1)OC(=O)B([B]C1[B][B][B][B]1)C1[B][B][B][B]1)C(C)=C3CCC(=O)O |  | MT-2 | cytopathic effect |  | IIIB | EC50 | 0.22 ± 0.09 µM
CN1CC2=C(NC(=S)NC2c2cccs2)/C(=C/c2cccs2)C1 |  | CEM + CEM-SS | cytopathic effect / XTT |  | RF | EC50 | >34 µM
C=CC(C)(C)O[C@H](C)[C@@H]1NC(=O)[C@H]2CSC(=N2)[C@@H](Cc2ccccc2)NC(=O)[C@@H]2CCCN2C(=O)[C@H](CO)NC(=O)C(CC(C)C)NC1=O |  | CEM | MTT |  |  | EC50 | >78 µM